# Values quoted from earlier work in article PMC4160447.
# The chains behind the UniProt entries cited, without tags or fusion partners.
# UniProt P08104, whole entry: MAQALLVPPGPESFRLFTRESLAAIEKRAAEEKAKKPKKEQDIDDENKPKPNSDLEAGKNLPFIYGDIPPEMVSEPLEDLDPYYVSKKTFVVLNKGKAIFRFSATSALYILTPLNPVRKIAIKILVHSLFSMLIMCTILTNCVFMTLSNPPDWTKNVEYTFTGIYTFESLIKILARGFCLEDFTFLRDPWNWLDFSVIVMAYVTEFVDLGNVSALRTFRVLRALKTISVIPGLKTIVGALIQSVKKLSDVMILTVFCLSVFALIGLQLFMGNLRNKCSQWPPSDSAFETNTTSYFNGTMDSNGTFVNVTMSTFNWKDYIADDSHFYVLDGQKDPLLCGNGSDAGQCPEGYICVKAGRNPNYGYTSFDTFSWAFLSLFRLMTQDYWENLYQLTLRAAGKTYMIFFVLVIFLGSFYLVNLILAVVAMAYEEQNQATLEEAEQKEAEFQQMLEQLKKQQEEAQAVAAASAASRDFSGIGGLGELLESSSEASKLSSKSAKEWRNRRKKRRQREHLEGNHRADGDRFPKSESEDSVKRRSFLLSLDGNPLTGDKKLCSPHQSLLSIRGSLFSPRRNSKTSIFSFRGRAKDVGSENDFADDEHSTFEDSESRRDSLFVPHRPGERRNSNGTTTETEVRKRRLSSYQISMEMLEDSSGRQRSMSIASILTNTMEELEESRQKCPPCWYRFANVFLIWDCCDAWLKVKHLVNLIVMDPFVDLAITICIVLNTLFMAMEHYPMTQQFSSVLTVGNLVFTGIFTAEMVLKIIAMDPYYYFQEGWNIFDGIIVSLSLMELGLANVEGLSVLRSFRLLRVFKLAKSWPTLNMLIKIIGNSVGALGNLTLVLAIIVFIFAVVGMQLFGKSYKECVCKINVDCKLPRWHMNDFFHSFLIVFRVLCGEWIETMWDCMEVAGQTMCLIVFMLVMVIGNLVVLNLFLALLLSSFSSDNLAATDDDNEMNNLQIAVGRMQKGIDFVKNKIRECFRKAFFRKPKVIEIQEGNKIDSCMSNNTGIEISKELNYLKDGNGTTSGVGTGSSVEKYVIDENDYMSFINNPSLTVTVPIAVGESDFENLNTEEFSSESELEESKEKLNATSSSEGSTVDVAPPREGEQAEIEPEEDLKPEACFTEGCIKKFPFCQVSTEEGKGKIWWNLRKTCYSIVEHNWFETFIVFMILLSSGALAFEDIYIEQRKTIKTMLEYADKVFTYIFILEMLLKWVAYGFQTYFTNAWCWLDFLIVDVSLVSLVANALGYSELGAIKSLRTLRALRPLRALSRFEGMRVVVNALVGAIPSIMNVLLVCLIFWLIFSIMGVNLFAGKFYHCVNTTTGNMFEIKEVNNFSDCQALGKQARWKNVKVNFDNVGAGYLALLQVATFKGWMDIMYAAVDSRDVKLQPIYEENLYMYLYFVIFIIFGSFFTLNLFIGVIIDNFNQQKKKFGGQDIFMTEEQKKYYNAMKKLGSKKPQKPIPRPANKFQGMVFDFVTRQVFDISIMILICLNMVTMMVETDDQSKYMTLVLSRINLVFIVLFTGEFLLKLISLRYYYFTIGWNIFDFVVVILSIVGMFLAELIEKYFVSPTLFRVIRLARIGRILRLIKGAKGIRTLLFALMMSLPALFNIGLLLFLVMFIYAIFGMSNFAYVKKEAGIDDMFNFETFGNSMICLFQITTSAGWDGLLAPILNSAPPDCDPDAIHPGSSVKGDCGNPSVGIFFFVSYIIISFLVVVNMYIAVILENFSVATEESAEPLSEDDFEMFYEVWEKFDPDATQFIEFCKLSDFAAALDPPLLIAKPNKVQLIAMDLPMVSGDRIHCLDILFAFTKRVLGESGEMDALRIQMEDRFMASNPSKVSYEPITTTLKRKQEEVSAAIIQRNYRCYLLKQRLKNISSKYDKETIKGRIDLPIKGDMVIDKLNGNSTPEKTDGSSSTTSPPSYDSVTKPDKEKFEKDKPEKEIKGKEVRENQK
# Target: NaV1.3 (Rattus norvegicus) (UniProt P08104)
substance,measurement,value
mu-conotoxin BuIIIB (from UniProt C1J5M6),Kd,0.2 µM
